Data published in PMC12443476 (2025).

Target: biotinylated Tom70 ([…]) with N-terminal AVI tag (human, biotin (AVI tag, by co-expressed BirA))
Experiment: SPR

B1: WT refolded Orf9b (apo-Orf9b homodimer) (natural protein)
chain: not shown
- koff: 0.0039 s⁻¹
